According to patent US20020123056A1, “SGK2 and its uses” (priority 2000, published 2002):

System: SGK2
Settings: Hi5 insect cells expressing GST-SGK2 treated four hours at 27° C. (100 nM microcysteine, 99.8 nM okadaic acid, 49.8 nM calyculin A)

C=C1[C@@H](O)[C@@H]2O[C@]3(CC[C@H](/C=C/[C@@H](C)[C@@H]4CC(C)=C[C@@]5(O[C@H](C[C@@](C)(O)C(=O)O)CC[C@H]5O)O4)O3)CC[C@H]2O[C@@H]1[C@@H](O)C[C@H](C)[C@H]1O[C@@]2(CCCCO2)CC[C@H]1C
No-Substrate (CCPM1) (purified GST-SGK2 assayed without substrate): 2078 CCPM1 | CapK sub(CCPM1) (substrate CapK sub 1 mg/ml, 15 minutes at room temperature): 161553 CCPM1 | PKB sub (CCPM1) (substrate PKB sub 1 mg/ml, 15 minutes at room temperature): 132171 CCPM1
